Anti-infective test results gathered from many reports (values: NIAID ChemDB through PubChem).

Shared fields: whole-cell or culture tests; agent: Candida albicans; read-out: MIC

Neighbouring rows are from separate reports.

smiles	strain	read by	conditions	result
CCCCCOc1ccc(-c2ccc(-c3ccc(C(=O)N[C@H]4CCCNC(=O)[C@@H]5C[C@H](N)CN5C(=O)[C@H](Cc5ccc(O)cc5)NC(=O)C(CCc5ccc(O)cc5)NC(=O)[C@@H]5C[C@@H](O)CN5C(=O)[C@H]([C@@H](C)O)NC4=O)cc3)cc2)cc1	ATCC 10231			0.78 µg/mL
C[C@@H](c1ncncc1F)[C@](O)(Cn1cncn1)c1ccc(F)cc1F	15 isolates	broth dilution	pH 5	0.03 µg/mL
COc1ccc(/C=C2\CSc3ccc(OC)cc3C2=O)cc1				25 µg/mL
NC1=NC2(CCCCC2)N(OCCCCCCCCc2ccccc2)C(N)=N1				30 µg/mL
O=c1c(N2CCOCC2)c(N2CCN(S(=O)(=O)Cc3ccccc3)CC2)cnn1-c1ccccc1	C-43	broth dilution		200 µg/mL
Clc1ccc(C(Cn2ccnc2)OC/C=C/c2ccccc2)cc1	CA2			128 µg/mL
O=C(c1ccccc1)c1oc2ccccc2c1Cn1cncn1	NRRL Y-27077			25 µg/mL
Cc1ccc(C(Cn2ccnc2)OCc2cccc3ccccc23)cc1	CDCB385			128 µg/mL
CCCCCOc1ccc(-c2ccc(-c3ccc(C(=O)N[C@H]4CCCNC(=O)C5C[C@H](N)CN5C(=O)C(C(C)O)NC(=O)C(Cc5ccccc5)NC(=O)C5C[C@@H](O)CN5C(=O)C(C(C)O)NC4=O)cc3)cc2)cc1	ATCC 10231			1.56 µg/mL
Fc1ccc(C(c2ccn(-c3ccc(F)cc3)c2)n2ccnc2)cc1				1.4 µg/mL
Clc1ccc(C(Cn2ccnc2)OCc2ccc(-c3ccccc3)cc2)cc1	CA6			>128 µg/mL
CC(/C=C/C=C(\C)C(O)C(C)C(=O)O[C@H]1C[C@@H](C)C=C2C=C[C@]3(C)O[C@@H](O)CC(=O)[C@]3(C)[C@H]21)=C\C=C\C(=O)O	CCH442			0.78 µg/mL
C[C@@H](n1cnc2cc(S(C)(=O)=O)ccc2c1=O)[C@](O)(Cn1cncn1)c1ccc(F)cc1F	76 strains			2.5 µg/mL
COc1ccc2c(c1)C(=O)/C(=C/c1ccc3c(c1)OCO3)CO2				25 µg/mL
Cc1c(Sc2ccccc2)[n+](=O)c2cc(Cl)ccc2n1[O-]	Clinical isolate 8			31.25 µg/mL
COC(=O)[C@H]1[C@@H]2C[C@@H](O[C@@H]3O[C@H](C)[C@@H](O)[C@H](N)[C@@H]3O)/C=C/C=C/C=C/C=C/C=C/C=C/C=C/[C@H](C)[C@@H](O)[C@H](C)[C@H](C)OC(=O)C[C@H](O)C[C@H](O)[C@@H](O)CC[C@H](O)C[C@H](O)C[C@](O)(C[C@@H]1O)O2	10 isolates	broth dilution	pH 4	16 µg/mL
CC(O)C1NC(=O)C(CCc2ccc(O)cc2)NC(=O)C2C[C@@H](O)CN2C(=O)C(C(C)O)NC(=O)[C@@H](NC(=O)c2ccc(N3CCN(c4ccc(OCc5ccccc5)cc4)CC3)cc2)CCCNC(=O)C2C[C@H](N)CN2C1=O	ATCC CCH442			0.2 µg/mL
C[C@H]1[C@H](O)[C@@H](C)/C=C/C=C/C=C/C=C/C=C/C=C/C=C/[C@H](O[C@@H]2O[C@H](C)[C@@H](O)[C@H](N)[C@@H]2O)C[C@@H]2O[C@](O)(C[C@@H](O)C[C@@H](O)CC[C@H](O)[C@@H](O)C[C@@H](O)CC(=O)O[C@H]1C)C[C@H](O)[C@H]2C(=O)O	FR2			0.008 µg/mL
O/N=C(\c1ccc(Cl)cc1)c1oc2ccccc2c1Cn1cncn1	NRRL Y-27077			25 µg/mL
CCCCOc1ccccc1CON1C(N)=NC(N)=NC1(C)C				30 µg/mL
COc1ccc(C(Cc2ccccc2F)n2ccnc2)cc1				49 µg/mL
c1ccc(-c2ccc(COC(Cn3ccnc3)c3ccccc3)cc2)cc1	CA7			>128 µg/mL
O=[n+]1c(Sc2ccccc2)c(CBr)n([O-])c2ccccc21	Clinical isolate 8			31.25 µg/mL
C[C@@H](c1ncncc1F)[C@](O)(Cn1cncn1)c1ccc(F)cc1F	76 strains			≤0.03 µg/mL
CCCCCOc1ccc(-c2ccc(-c3ccc(C(=O)N[C@H]4CCCNC(=O)C5C[C@H](NC(=O)OC)CN5C(=O)C(C(C)O)NC(=O)C(CCc5ccc(O)cc5)NC(=O)C5C[C@@H](O)CN5C(=O)C(C(C)O)NC4=O)cc3)cc2)cc1	ATCC 10231			0.78 µg/mL
NC(=NC1CCCC1)c1ccc(-c2ccc(-c3ccc(C(N)=NC4CCCC4)cc3)o2)cc1	Isolate 3022 fluconazole-resistant			12.5 µg/mL
Cc1ccc2oc(/C(=N/O)c3ccc(Cl)cc3)c(C)c2c1	NRRL Y-27077			5 µg/mL
Clc1ccc(C(Cn2ccnc2)OCc2ccc(-c3ccccc3)cc2)c(Cl)c1	CA12			128 µg/mL
COc1cc2ncn([C@H](C)[C@](O)(Cn3cncn3)c3ccc(F)cc3F)c(=O)c2cc1OC	60 strains			1.25 µg/mL
CC[C@@H]([C@H](C)O)n1ncn(-c2ccc(N3CCN(c4ccc(OC[C@@H]5CO[C@@](Cn6cncn6)(c6ccc(F)cc6F)C5)cc4)CC3)cc2)c1=O	15 isolates	broth dilution	pH 4	0.03 µg/mL
C[C@@H](n1cnc2ccc(Cl)cc2c1=O)[C@](O)(Cn1cncn1)c1ccc(F)cc1F	76 strains			0.63 µg/mL
Clc1ccc(C(Cn2ccnc2)OC/C=C/c2ccccc2)c(Cl)c1	3M			4 µg/mL
O=C(Nc1nc2ccc(NC(=O)[C@@H]3CCC[C@H](NCc4ccc5ccccc5c4)C3)cc2s1)C1CCCC1	TIMM 0239			0.78 µM
C[C@H]1[C@H](O)[C@@H](C)/C=C/C=C/C=C/C=C/C=C/C=C/C=C/[C@H](O[C@@H]2O[C@H](C)[C@@H](O)[C@H](N)[C@@H]2O)C[C@@H]2O[C@](O)(C[C@@H](O)C[C@@H](O)CC[C@H](O)[C@@H](O)C[C@@H](O)CC(=O)O[C@H]1C)C[C@H](O)[C@H]2C(=O)O	R89-335			1 µg/mL
CC(C)(O)c1cn(-c2ccc(Cl)cc2)nn1	URM 4387	broth dilution		128 µg/mL
Fc1ccc(C(c2ccn(-c3ccccc3)c2)n2ccnc2)cc1				1.8 µg/mL
O=C1/C(=C/c2ccc(Cl)cc2)CSc2ccccc21				50 µg/mL
Clc1ccc(COC(Cn2ccnc2)c2ccc(Cl)cc2Cl)c(Cl)c1	10 isolates	broth dilution	pH 4	0.25 µg/mL
Cc1c(Cl)[n+](=O)c2cc(Cl)ccc2n1[O-]	Clinical isolate 11			7.8 µg/mL
Cc1c(O)cccc1C(=O)N[C@@H](CSc1ccccc1)[C@H](O)CN1C[C@H]2CCCC[C@H]2C[C@H]1C(=O)NC(C)(C)C	I177A			64 µg/mL
CCC1N=C(N)N=C(N)N1OCc1ccc(Cl)c(Cl)c1				>250 µg/mL
CCCCCCCCOc1ccc(N2CCN(c3ccc(C(=O)N[C@H]4CCCNC(=O)C5C[C@H](N)CN5C(=O)C(C(C)O)NC(=O)[C@@H](OCc5ccccc5)NC(=O)C5C[C@@H](O)CN5C(=O)C(C(C)O)NC4=O)cc3)CC2)cc1	ATCC 10231			>100 µg/mL
Clc1ccc(C(Cn2ccnc2)OCc2cccc3ccccc23)cc1	CA7			>128 µg/mL
O[C@](Cn1cncn1)(Cn1cnc(/C=C/c2ccc(OCC(F)(F)C(F)F)cc2)n1)c1ccc(F)cc1F	Isolate 08-31			1 µg/mL
CCCCCOc1ccc(-c2ccc(-c3ccc(C(=O)N[C@H]4CCCNC(=O)C5CNCN5C(=O)C(C(C)O)NC(=O)C(CCc5ccc(O)cc5)NC(=O)C5C[C@@H](O)CN5C(=O)C(C(C)O)NC4=O)cc3)cc2)cc1	ATCC CCH442			0.78 µg/mL
CCC(C)CC(C)CCCCCCCCC(=O)N[C@H]1C[C@@H](O)[C@H](NCCN)NC(=O)[C@@H]2[C@@H](O)CCN2C(=O)[C@H]([C@H](O)CCN)NC(=O)[C@H]([C@H](O)[C@@H](O)c2ccc(O)cc2)NC(=O)[C@@H]2C[C@@H](O)CN2C(=O)[C@H]([C@@H](C)O)NC1=O	C375	broth dilution		0.5 µg/mL
Cc1cccc2c(=O)n([C@H](C)[C@](O)(Cn3cncn3)c3ccc(F)cc3F)cnc12	76 strains			20 µg/mL
CCCCCCOc1ccc(CON2C(N)=NC(N)=NC2(C)C)cc1				30 µg/mL
COc1cc(O)c2c(c1)C(=O)c1c(cc3c(c1O)-c1c(cc(C)c(C(=O)NC(CO)C(=O)O)c1O)[C@H](OC1OC(C)C(N(C)C)C(OC4OCC(O)C(O)C4O)C1O)[C@H]3O)C2=O	IAM4888			6.3 µg/mL
Cc1c(Sc2ccccc2)[n+](=O)c2cc(C(F)(F)F)ccc2n1[O-]	Clinical isolate 17			31.25 µg/mL
Cc1ccc2oc(C(=O)c3ccccc3)c(C)c2c1	Clinical isolate			50 µg/mL
C[C@@H](n1cnc2cccc(Cl)c2c1=O)[C@](O)(Cn1cncn1)c1ccc(F)cc1F	76 strains			10 µg/mL
COc1ccc(/C=C2\COc3ccccc3C2=O)cc1OC				50 µg/mL
CCCCCCCCON1C(N)=NC(N)=NC1(C)C				>60 µg/mL
Cc1ccc(C(c2ccn(-c3ccccc3)c2)n2ccnc2)cc1				1.2 µg/mL

A second listing of 5 rows from above:

{"smiles": "CCCCCCOc1ccc(CON2C(N)=NC(N)=NC2(C)C)cc1", "result": "30 µg/mL"}
{"smiles": "Clc1ccc(C(Cn2ccnc2)OCc2ccc(-c3ccccc3)cc2)c(Cl)c1", "strain": "CA12", "result": "128 µg/mL"}
{"smiles": "c1ccc(-c2ccc(COC(Cn3ccnc3)c3ccccc3)cc2)cc1", "strain": "CA7", "result": ">128 µg/mL"}
{"smiles": "O=c1c(N2CCOCC2)c(N2CCN(S(=O)(=O)Cc3ccccc3)CC2)cnn1-c1ccccc1", "strain": "C-43", "read by": "broth dilution", "result": "200 µg/mL"}
{"smiles": "CCCCOc1ccccc1CON1C(N)=NC(N)=NC1(C)C", "result": "30 µg/mL"}

An empty or dashed field is not shown.